Laboratory results taken from ChEMBL document CHEMBL1201862, “PubChem BioAssay data set” (2004).
Activity calls are given as the source filed them. No rule for the calls is given here.

Assay: A Cell Based Secondary Assay To Explore Cytotoxicity of Compounds that Sensitize Mycobacterium Tuberculosis to Beta-Lactam Antibiotics.
Format: functional

SMILES: CCCCCCCCCCCCCCCC[N+](C)(C)CCN(Cc1ccc(OC)cc1)c1ncccn1 [THONZONIUM BROMIDE]
- CC50: active: 10.6 µM
